Measured values from patent US20060121056A1.

Target: SNAP-25 (rat) (UniProt P60881)

Substance “SBA-LHN/A conjugate (lectin from Glycine max chemically conjugated to LHN/A) (enzyme)” has an IC50, inhibition of substance P release from eDRG neurons (three days) (microgrammes/ml) of 1.84.
